Test system: beta amyloid aggregates
Experiment: Clinical trial: fluorescence lifetime ratio (signal/background) in the eye after ocular dosing of Fluorescent Ligand, discriminating HV from AD
Assay type: in vivo, human
Settings: HV N=20 vs AD N=20; three doses to test eye, measurement 18 hrs after first dose; FIG. 5

COCCOCCOCCOC(=O)/C(C#N)=C/c1ccc2cc(N3CCCCC3)ccc2c1 [Aftobetin]
threshold ratio (signal/background) that can discriminate between the groups: around 0.37
